Assay results taken from the supplement of paper PMC3578754.
Fold change is the IC50 on the isolate divided by the IC50 on a reference virus; 1 = unchanged, higher = more resistant. Changes are given against the subtype B consensus. No active / inactive call. The values were gathered from many studies (numbered anew) with different assays, which the source does not name. Most viruses are clinical isolates; some are laboratory strains or clones with known resistance changes. Isolates with mixed residues are left out; stretches that were not sequenced show no change. Round top values that many isolates share are read here as limits; other very high values and 0.1 may be limits too.

Experiments:
Test in all cases: fold change of IC50 against reference virus; higher = more resistant
tenofovir = compound: C[C@H](Cn1cnc2c(N)ncnc21)OCP(=O)(O)O [tenofovir]
Experimental: (§1)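 Cell-culture drug susceptibility tests of virus bearing the reverse transcriptase of each isolate, gathered from many studies.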

stavudine = compound: Cc1cn([C@H]2C=C[C@@H](CO)O2)c(=O)[nH]c1=O [stavudine]
Experimental: as §1

zidovudine = compound: Cc1cn([C@H]2C[C@H](N=[N+]=[N-])[C@@H](CO)O2)c(=O)[nH]c1=O [zidovudine]
Experimental: as §1

emtricitabine = compound: Nc1nc(=O)n([C@@H]2CS[C@H](CO)O2)cc1F [emtricitabine]
Experimental: as §1

abacavir = compound: Nc1nc(NC2CC2)c2ncn([C@H]3C=C[C@@H](CO)C3)c2n1 [abacavir]
Experimental: as §1

didanosine = compound: O=c1[nH]cnc2c1ncn2[C@H]1CC[C@@H](CO)O1 [didanosine]
Experimental: as §1

nevirapine = compound: Cc1ccnc2c1NC(=O)c1cccnc1N2C1CC1 [nevirapine]
Experimental: as §1

zalcitabine = compound: Nc1ccn([C@H]2CC[C@@H](CO)O2)c(=O)n1 [zalcitabine]
Experimental: as §1

delavirdine = compound: CC(C)Nc1cccnc1N1CCN(C(=O)c2cc3cc(NS(C)(=O)=O)ccc3[nH]2)CC1 [delavirdine]
Experimental: as §1

efavirenz = compound: O=C1Nc2ccc(Cl)cc2[C@@](C#CC2CC2)(C(F)(F)F)O1 [efavirenz]
Experimental: as §1

| Test System | fold change of IC50 against reference virus (tenofovir) | fold change of IC50 against reference virus (stavudine) | fold change of IC50 against reference virus (zidovudine) | fold change of IC50 against reference virus (emtricitabine) | fold change of IC50 against reference virus (abacavir) | fold change of IC50 against reference virus (didanosine) | fold change of IC50 against reference virus (nevirapine) | fold change of IC50 against reference virus (zalcitabine) | fold change of IC50 against reference virus (delavirdine) | fold change of IC50 against reference virus (efavirenz) |
| --- | --- | --- | --- | --- | --- | --- | --- | --- | --- | --- |
| HIV-1 isolate 1632 (reverse transcriptase changes: A62V V75I F77L Y115F F116Y Q151M Y181C M184V, study 136) | 1.2 | 7.1 | 88 | 110 | 35 | 13 | – | – | – | – |
| HIV-1 isolate 151 (reverse transcriptase changes: K122E Y181C M184V F214L A272P K277R A376T A400T D460N S468T H483Y K512Q S519N, study 44) | – | – | 1 | 5000 | – | – | 126 | 4 | – | – |
| HIV-1 isolate 693 (reverse transcriptase changes: M41L K122E M184V F214L A272P K277R L282Y A376T A400T D460N S468T H483Y K512Q S519N, study 44) | – | – | 5 | 5000 | – | 3.9 | 1 | 6 | – | – |
| HIV-1 isolate 1377 (reverse transcriptase changes: M41L K122E F214L T215Y A272P K277R A376T A400T D460N S468T H483Y K512Q S519N, study 44) | – | – | 1 | 4 | – | 2.4 | 1 | 3 | – | – |
| HIV-1 isolate 440 (reverse transcriptase changes: P4S M41L A98G K122E D123N Y181C M184V G196E I202V L210W R211K T215Y L228R V245K A272P E297K, study 15) | 0.9 | 1.7 | 11 | – | 4.5 | 1.6 | 7.3 | 1.7 | 1 | 1.4 |
| HIV-1 isolate 677 (reverse transcriptase changes: D67N T69D K70R V90I K103N K122E I135T S162A T215F K219Q L228H V245T D250E, study 15) | 3.2 | 1.8 | 281 | – | 3.4 | 1.4 | 124 | 1.8 | 800 | 43 |
| HIV-1 isolate 808 (reverse transcriptase changes: D67N K70R K122E F214L T215Y K219Q A272P K277R A376T A400T D460N S468T H483Y K512Q S519N, study 44) | – | – | 126 | 6 | – | 1.9 | 1 | 2 | – | – |
| HIV-1 isolate 1115 (reverse transcriptase changes: K20R K32E T39A M41L E44D D67N V118I D123E I135K Q174R D177E M184V G196E T200A L210W R211K T215Y V245E E297K, study 15) | 1.1 | 2.6 | 9.6 | – | 5.2 | 2.1 | 0.1 | 2.6 | 0.1 | 0.2 |
| HIV-1 isolate 946 (reverse transcriptase changes: T27A V35Q T39A D67N S68G K70R D123E I135T I142V K166R D177E V179I Y181C G196E E203D T215F K219E A272P K277R L283I A288T E297K, study 121) | 2.8 | 2.2 | 102 | – | 2.3 | 1.2 | ≥ 400 | 0.9 | 49 | 2.8 |
| HIV-1 isolate 1273 (reverse transcriptase changes: D67N T69D K70R K122E Y181C F214L T215F K219Q F227L A272P K277R, study 138) | 2.1 | 3.2 | 83.3 | – | 1.6 | 0.8 | ≥ 400 | 0.8 | 1 | 10 |
| HIV-1 isolate 985 (reverse transcriptase changes: Q151L, study 136) | 0.1 | 0.7 | 0.1 | 1.1 | 0.6 | 1.2 | – | – | – | – |
| HIV-1 isolate 461 (reverse transcriptase changes: D67N K70R L100I K102R K103N I135V I142V Q174H V179I G196E R211G F214L T215F K219Q A272S I293V E297A K311R, study 121) | 1.2 | 1.1 | 35 | – | 0.9 | 0.7 | 29 | 0.5 | ≥ 250 | 700 |
| HIV-1 isolate 767 (reverse transcriptase changes: K65R T69D K70R Y181C G190A, study 118) | 1.2 | 1.6 | 0.2 | – | 3.6 | 1.5 | 180 | 1.9 | 0.6 | 3.5 |
| HIV-1 isolate 1435 (reverse transcriptase changes: K122E F214L A272P K277R A376T A400T D460N S468T H483Y K512Q S519N, study 20) | – | 1 | 1 | 1 | – | 1 | – | 1 | – | – |
